Tested on: mice
Assay: Acetic acid induced writhing in mice (analgesic effect)

N=C1NCC2C3OC4(O)OC([C@@H](O)C2(N1)[C@@H]4O)C3(O)CO (stereo partly shown)
analgesic effect, times lower than that of tetrodotoxin: approximately 330 times
